For this series, the system named is Nc1ncnc2c1ncn2[C@@H]1O[C@H](COP(=O)(O)OP(=O)(O)OP(=O)(O)O)[C@@H](O)[C@H]1O. Briefly: purified protein. The settings on record: phosphate donor, acceptor murine Myl12a, 10 mM MnCl2, 25 mM Tris-HCl pH 7.5, 1 mM DTT, 30 °C, 30 min.

The record followed here is publication PMC11021425, “Salmonella manipulates macrophage migration via SteC-mediated myosin light chain activation to penetrate the gut-vascular barrier” (The EMBO Journal, 2024).

For “SteC FL (full-length SteC) (Salmonella enterica subsp. enterica serovar Typhimurium str. 14028S)”, the Km (as a rule, the substrate concentration at which the rate is half of its maximum) worked out at 1.56 µM.
